# PubChem BioAssay AID624099, ICCB-Longwood | 2012
# Purpose: 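Host factors E2 relies on to silence an HPV18 LCR reporter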 (primary screen)
# Cell system: human C33A cervical carcinoma cells (HPV-negative) stably expressing BPV1 E2 and an HPV18 LCR luciferase reporter
# Knock-down reagent: siRNA pool against human genes, 40 nM
# Time to read-out: 72 h
# Measurement: 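HPV18 LCR reporter light per well, converted to plate-wise z-scores that exclude control wells, and averaged over triplicate plates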
# Reading the numbers: mean z-score and z-score: higher = stronger reporter signal, weaker E2 silencing
# Hit rule: 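Hit if mean z-score reaches 2 and two or more of three replicate z-scores also reach 2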
# The whole screen tested about 21,000 reagents; below is a random part of them. 497 of all reagents (2.4%) were called active. 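Higher z means weaker E2 silencing; only reporter increases were scored, and knock-downs that hurt cell survival may mask genuine repressor factors.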 A number with no mark means an inactive call.
The first 4 records, ahead of the listing:
gene knocked down,mean z-score,"z-score, replicate A","z-score, replicate B","z-score, replicate C"
OMP (GeneID 4975),-0.52,-0.67,-0.18,-0.69
IL18R1 (GeneID 8809),-0.46,-0.26,-0.52,-0.6
MTARC1 (GeneID 64757),-0.2,0,-0.41,-0.17
RAPGEFL1 (GeneID 51195),0.6,0.6,0.54,0.66

Main list, repeating the preview:
gene knocked down,mean z-score,"z-score, replicate A","z-score, replicate B","z-score, replicate C"
OMP (GeneID 4975),-0.52,-0.67,-0.18,-0.69
IL18R1 (GeneID 8809),-0.46,-0.26,-0.52,-0.6
MTARC1 (GeneID 64757),-0.2,0,-0.41,-0.17
RAPGEFL1 (GeneID 51195),0.6,0.6,0.54,0.66
TARS2 (GeneID 80222),-0.24,-0.44,-0.08,-0.19
ANAPC11 (GeneID 51529),0.08,0.02,0.2,0.02
LOC400584 (retired record) (GeneID 400584),-0.7,-0.68,-0.53,-0.89
IFT70A (GeneID 92104),0.69,0.37,0.94,0.76
OSBPL1A (GeneID 114876),0.53,0.85,0.58,0.16
TUBAL3 (GeneID 79861),-0.56,-0.23,-0.62,-0.84
FAM124A (GeneID 220108),0.77,0.7,0.93,0.68
SELENOO (GeneID 83642),-0.1,0.02,-0.01,-0.32
SFT2D2 (GeneID 375035),-0.01,-0.22,-0.16,0.37
SPATA21 (GeneID 374955),-0.23,-0.22,-0.44,-0.02
RBM22P1 (GeneID 400645),0.96,1.3,0.82,0.76
TNK1 (GeneID 8711),0.66,0.34,0.91,0.72
LOC388713 (retired record) (GeneID 388713),-0.28,-0.23,0.01,-0.61
GRIN3A (GeneID 116443),-1.47,-1.39,-1.6,-1.42
TSC22D3 (GeneID 1831),0.06,0.1,0.14,-0.07
PRPF40A (GeneID 55660),0.91,1.2,0.84,0.68
RASA4 (GeneID 10156),0.68,0.76,0.67,0.62
C15orf32 (GeneID 145858),-0.41,-1.07,-0.09,-0.07
LOC400675 (retired record) (GeneID 400675),0.3,0.11,0.23,0.57
TAF10 (GeneID 6881),-1.47,-1.48,-1.44,-1.5
ARSB (GeneID 411),0.26,0.05,0.41,0.31
IZUMO1R (GeneID 390243),0.02,-0.06,0.12,0
TEX55 (GeneID 152405),-2.28,-2.2,-2.47,-2.17
SHANK1 (GeneID 50944),-0.07,-0.04,-0.05,-0.11
GTF2IRD1 (GeneID 9569),-1.5,-1.52,-1.64,-1.34
TMEM47 (GeneID 83604),-0.32,-0.33,-0.3,-0.34
OR13A1 (GeneID 79290),-0.42,-0.41,-0.52,-0.34
CD5 (GeneID 921),-0.95,-0.93,-1.01,-0.92
TMEM263 (GeneID 90488),-0.28,-0.46,-0.47,0.08
LIG4 (GeneID 3981),-0.46,-0.54,-0.22,-0.64
SYMPK (GeneID 8189),-0.4,-0.39,-0.58,-0.23
NPAS2 (GeneID 4862),0.66,0.38,0.94,0.67
SELL (GeneID 6402),1.04,0.99,1.06,1.07
SMARCD1 (GeneID 6602),-0.77,-0.68,-0.79,-0.82
RAB3IL1 (GeneID 5866),-0.71,-0.86,-0.72,-0.54
PYHIN1 (GeneID 149628),0.31,-0.05,0.91,0.07
CBLB (GeneID 868),0.75,1.13,0.41,0.72
ENOX2 (GeneID 10495),0.82,0.83,0.83,0.8
ADH7 (GeneID 131),0.72,0.8,0.67,0.68
STRN4 (GeneID 29888),-0.13,0.25,0.03,-0.65
CELF4 (GeneID 56853),0.71,0.83,0.48,0.82
GSTA5 (GeneID 221357),-0.48,-0.47,-0.33,-0.64
AHDC1 (GeneID 27245),0.3,0.24,0.34,0.31
DSC1 (GeneID 1823),1.78,1.87,1.84,1.63
PISD (GeneID 23761),-0.74,-0.64,-0.64,-0.94
NTRK3 (GeneID 4916),0.36,0.82,0.17,0.08
BCL2L2 (GeneID 599),-0.22,-0.38,-0.13,-0.16
FGG (GeneID 2266),-0.09,-0.05,-0.11,-0.1
HOXC10 (GeneID 3226),1.71,1.63,1.91,1.59
ZNF45 (GeneID 7596),-0.15,-0.38,-0.11,0.04
CNGB3 (GeneID 54714),0.64,0.78,0.53,0.59
SLC16A7 (GeneID 9194),0.99,0.9,1.01,1.07
C2orf68 (GeneID 388969),2.14,1.96,1.89,2.56
